For experiment [1], the target named is T1, M. smegmatis cytochrome bc^Mtb-like QcrB^A312V (Mycolicibacterium smegmatis, UniProt A0R051+A0R052, D309E/F156Y/I182M/I312V/M189L). In words: biochemical.
In experiment [2] the test system is M. smegmatis cytochrome bc^Mtb-like QcrA^L349W. In words: biochemical.
In experiment [3] the target is M. smegmatis cytochrome bc^Mtb-like QcrA^L349W (Mycolicibacterium smegmatis, UniProt A0R052+I7GD61, D309E/F156Y/I182M/I312A/L349W/M189L). In words: biochemical.
The target of experiment [4] is T2, M. smegmatis cytochrome bc^Mtb-like QcrB^M337V (Mycolicibacterium smegmatis, UniProt A0R051+A0R052, D309E/F156Y/I182M/I312A/M189L/M337V). In words: biochemical.
In experiment [5] the target is T2, M. smegmatis cytochrome bc^Mtb-like QcrB^M337V.
Experiment [6] has as its target T1, M. smegmatis cytochrome bc^Mtb-like QcrB^A312V.
For experiment [7], the target named is M. smegmatis cytochrome bc^Mtb-like (Mycolicibacterium smegmatis, UniProt A0R051+A0R052, D309E/F156Y/I182M/I312A/M189L). In words: biochemical.

Two compounds from publication PMC11964921 (npj Drug Discovery, 2025) can be followed below.

On to `CCc1nc2ccc(Cl)cn2c1C(=O)NCc1ccc(C2CC3(C2)CN(S(=O)(=O)C(F)(F)F)C3)cc1` [JNJ-2901], for which the IC50 was 23.8 µM in experiment [1]; 98 nM in experiment [3]; 12.9 µM in experiment [4]; 19 nM in experiment [7] (IC50 oxygen consumption); 17.4 nM in experiment [7] (IC50 oxygen consumption rate). Further, the “fold increase in IC50 compared to wild-type protein” value is recorded as 5 fold in experiment [2], greater than 700 fold in experiment [5] and greater than 700 fold in experiment [6].

In turn, `CCc1nc2ccc(Cl)cn2c1C(=O)NCc1ccc(N2CCC(c3ccc(OC(F)(F)F)cc3)CC2)cc1` [Q203] came in with a half-maximal inhibitory concentration (IC50) in experiment [7] (IC50 oxygen consumption rate) of 22.4 nM.
